We go through one molecule from article PMC4148451 (PLoS Pathogens, 2014).

The assay addresses T1, HIV-1 envelope glycoprotein gp140 (HIV-1 group M subtype B, isolate YU2, UniProt P35961).
T1 construct: also called gp140-F; gp140-F immunogen
Nature of the assay: ELISA. Particulars: both partners purified. Background: ELISA stands for enzyme-linked immunosorbent assay.

B1: putative germline form of GE356 MAb (antibody, V domains shown)
VH: QVQLVQSGAEVKKPGSSVKVSCKASGYTFTDYYMHWVRQAPGQGLEWMGEINPKTGGTNYAQKFQGRVTMTRDTSTSTAYMELSSLRSEDTAVYYCARGGQRLLLLRNYYFYYWGQGVLVTVSS
VL: QSVLTQPPSVSGAPGQKVTISCTGSSSNIGGYDVHWYQQLPGTAPKLLIYDNNKRPSGISDRFSGSKSGTSASLAITGLQTEDEADYYCQSYDSSLNAWVFGGGTRLTVL
notes: also called putative germline GE356; putative germline version of GE356
For B1, the binding result is recorded as “binds”.
